Patent US20120195879A1 (published 2012)

Biological target: human Kv1.3 (human, UniProt P22001 1-575)
Assay: cell-based or functional assay

Row | Binder | Kv1.1/Kv1.3 Selectivity Ratio by PX | Potency Relative to ShK (WB, IL2)
1 | Monovalent Fc/Fc-ShK(1-35 Q16K) heterodimer (Fc fusion) chain 1: ERKVECPPCPAPPVAGPSVFLFPPKPKDTLMISRTPEVTCVVVDVSHEDPEVQFNWYVDGVEVHNAKTKPREEQFNSTFRVVSVLTVVHQDWLNGKEYKCKVSNKGLPAPIEKTISKTKGQPREPQVYTLPPSREEMTKNQVSLTCLVKGFYPSDIAVEWESNGQPENNYKTTPPMLDSDGSFFLYSKLTVDKSRWQQGNVFSCSVMHEALHNHYTQKSLSLSPGK chain 2: ERKVECPPCPAPPVAGPSVFLFPPKPKDTLMISRTPEVTCVVVDVSHEDPEVQFNWYVDGVEVHNAKTKPREEQFNSTFRVVSVLTVVHQDWLNGKEYKCKVSNKGLPAPIEKTISKTKGQPREPQVYTLPPSREEMTKNQVSLTCLVKGFYPSDIAVEWESNGQPENNYKTTPPMLDSDGSFFLYSKLTVDKSRWQQGNVFSCSVMHEALHNHYTQKSLSLSPGKGGGGSGGGGSRSCIDTIPKSRCTAFKCKHSMKYRLSFCRKTCGTC | 1220 ratio | 2.39 ratio
2 | Bivalent Fc-ShK(1-35 Q16K) homodimer (Fc fusion) ERKVECPPCPAPPVAGPSVFLFPPKPKDTLMISRTPEVTCVVVDVSHEDPEVQFNWYVDGVEVHNAKTKPREEQFNSTFRVVSVLTVVHQDWLNGKEYKCKVSNKGLPAPIEKTISKTKGQPREPQVYTLPPSREEMTKNQVSLTCLVKGFYPSDIAVEWESNGQPENNYKTTPPMLDSDGSFFLYSKLTVDKSRWQQGNVFSCSVMHEALHNHYTQKSLSLSPGKGGGGSGGGGSRSCIDTIPKSRCTAFKCKHSMKYRLSFCRKTCGTC |  | 27.6 ratio
